According to patent US20190359955:
Residue numbers refer to the chain shown, from its start. Tags and fusion partners may be left off the protein sequences shown.

What was measured:
Experiment in all cases: activity assay
[1] = target: T1, Tn5001 (hyperactive Tn5 transposase control) (UniProt Q46731); settings: tagmentation of B. cereus gDNA, reference control, purified recombinant protein, protein details: StrepTag-II and SUMO vector
T1 sequence (limits assumed): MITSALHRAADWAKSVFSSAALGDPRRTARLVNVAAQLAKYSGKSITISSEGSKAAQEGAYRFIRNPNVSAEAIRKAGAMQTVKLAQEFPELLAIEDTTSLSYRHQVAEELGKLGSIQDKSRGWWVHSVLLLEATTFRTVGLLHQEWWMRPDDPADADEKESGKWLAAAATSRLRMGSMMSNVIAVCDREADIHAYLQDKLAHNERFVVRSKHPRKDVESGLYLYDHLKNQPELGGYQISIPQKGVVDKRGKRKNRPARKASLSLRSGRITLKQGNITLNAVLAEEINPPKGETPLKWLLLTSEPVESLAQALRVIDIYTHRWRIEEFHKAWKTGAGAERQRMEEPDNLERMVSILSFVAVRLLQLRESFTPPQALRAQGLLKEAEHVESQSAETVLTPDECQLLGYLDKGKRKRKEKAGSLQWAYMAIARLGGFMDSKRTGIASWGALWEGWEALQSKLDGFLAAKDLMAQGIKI

[2] = target: T2, Tn5058 (hyperactive Tn5 K212R/P214R/A338V) (UniProt Q46731); settings: tagmentation; library size 1.7x of Tn5001, reduced AT dropout; purified recombinant protein; protein details: StrepTag-II and SUMO vector
T2 sequence (limits assumed): T1 sequence (limits assumed) with K212R, P214R, A338V

[3] = target: T3, Tn5061 (hyperactive Tn5 E146Q/E190G/G251R) (UniProt Q46731); settings: tagmentation of B. cereus gDNA; purified recombinant protein; protein details: StrepTag-II and SUMO vector
T3 sequence (limits assumed): T1 sequence (limits assumed) with E146Q, E190G, G251R

[4] = target: T4, Tn5059 (hyperactive Tn5 K212R/P214R/G251R/A338V) (UniProt Q46731); settings: tagmentation; library size 2.2x of Tn5001, reduced AT dropout; purified recombinant protein; protein details: StrepTag-II and SUMO vector
T4 sequence (limits assumed): T1 sequence (limits assumed) with K212R, P214R, G251R, A338V

Tn5 K120Y = target: T5, Tn5 K120Y (UniProt Q46731); settings: tagmentation of E. coli gDNA; duplication 9 to 10 bp; backbone not explicit; protein in a lysate after overexpression; protein details: StrepTag-II and SUMO vector
T5 sequence (limits assumed): T1 sequence (limits assumed) with K120Y

Tn5 D248Y = target: T6, Tn5 D248Y (UniProt Q46731); settings: tagmentation of E. coli gDNA; loss of insertion symmetry; backbone (wt or hyperactive) not explicit; protein in a lysate after overexpression; protein details: StrepTag-II and SUMO vector
T6 sequence (limits assumed): T1 sequence (limits assumed) with D248Y

Tn5 W125M = target: T7, Tn5 W125M (UniProt Q46731); settings: tagmentation of E. coli gDNA; reduced bias in 2nd half of IVC plot; backbone not explicit; protein in a lysate after overexpression; protein details: StrepTag-II and SUMO vector
T7 sequence (limits assumed): T1 sequence (limits assumed) with W125M

Tn5 K120F = target: T8, Tn5 K120F (UniProt Q46731); settings: tagmentation of E. coli gDNA; duplication 9 to 10 bp; backbone not explicit; protein in a lysate after overexpression; protein details: StrepTag-II and SUMO vector
T8 sequence (limits assumed): T1 sequence (limits assumed) with K120F

Tn5 K120W = target: T9, Tn5 K120W (UniProt Q46731); settings: tagmentation of E. coli gDNA; duplication 9 to 10 bp; backbone not explicit; protein in a lysate after overexpression; protein details: StrepTag-II and SUMO vector
T9 sequence (limits assumed): T1 sequence (limits assumed) with K120W

Measured: activity on this sequence

GTCTCGTGGGCTCGGAGATGTGTATAAGAGACAG / CTGTCTCTTATACACATCT [Tn5-ME-B transposon (Tn5MEB/NTS)]
active: [1]; with ME-A | [2] | [3] | [4]

TCGTCGGCAGCGTCAGATGTGTATAAGAGACAG / CTGTCTCTTATACACATCT [Tn5-ME-A transposon (Tn5MEA/NTS)]
active: [1]; with ME-B | [2] | [3] | Tn5 K120Y | Tn5 D248Y | Tn5 W125M | Tn5 K120F | Tn5 K120W | [4]
